Results published in article PMC12502779.

Target: T1, 6xHis-OxyR (Salmonella enterica serovar Typhi ISP1820) (UniProt Q8XF66)
T1 sequence: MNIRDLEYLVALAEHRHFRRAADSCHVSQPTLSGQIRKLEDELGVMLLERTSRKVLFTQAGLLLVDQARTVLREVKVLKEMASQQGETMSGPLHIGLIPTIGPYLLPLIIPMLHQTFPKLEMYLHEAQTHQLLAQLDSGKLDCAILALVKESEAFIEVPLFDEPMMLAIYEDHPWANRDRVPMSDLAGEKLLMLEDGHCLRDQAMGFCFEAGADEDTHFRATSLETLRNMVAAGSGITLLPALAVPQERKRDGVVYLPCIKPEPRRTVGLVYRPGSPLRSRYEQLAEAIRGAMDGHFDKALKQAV
Test: EMSA
Settings: 10 nM probe, 0.1 and 3 ug protein, positive control, EMSA with 10 nM probe, 5% acrylamide gel, RedSafe stain, pH and temperature not given (as previously described, ref 27), recombinant protein, residues 1-305, protein details: 6xHis (N-terminal, pET14b), label: none, probe letters rebuilt from the primers and the genome

Sequence: GTTGGAACCAAGATCCACACGAAGCTGGTTCGGCCACCAGTCGCGGCTGGCTGTCCCTGCGCCTGCGCTTCGGTCATGCCCCCCCTGATGGAAAGGACATTTTCCAGTGGATAACGTGTTATGGGTATCGTCGGTCGTGCTCATATCTCAGCTCCCTTTTAAAGTGTTACCGTTACGATATACACCAGGAGCAAATAGATATAGTTGAATTAATCCACAGATTCGATAGCTAATACCTTTTATATTTTTAGTTACAGAGATGTAGATCAATATGAGGTGTAATAAAGCTCCCGGCAGGGATCCCG (double strand) [pkatG (katG promoter)]
- binding result: binds
